Laboratory results: PubChem BioAssay AID624099 (ICCB-Longwood, 2012)
The whole screen tested about 21,000 reagents; below is a random part of them. Over the whole deposit, 497 (2.4%) got an active call. 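Higher z means weaker E2 silencing; only reporter increases were scored, and knock-downs that hurt cell survival may mask genuine repressor factors.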

- Aim: 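Human genes that papillomavirus E2 requires to repress the HPV18 LCR promoter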 (primary screen)
- System: human C33A cervical carcinoma cells (HPV-negative) stably expressing BPV1 E2 and an HPV18 LCR luciferase reporter
- Knock-down reagent: siRNA pool against human genes, 40 nM
- Time to read-out: 72 h
- Read-out: 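HPV18 LCR reporter light per well, converted to plate-wise z-scores that exclude control wells, and averaged over triplicate plates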
- Scale: mean z-score and z-score: higher = stronger reporter signal, weaker E2 silencing
- Rule for the call: 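Hit if mean z-score reaches 2 and two or more of three replicate z-scores also reach 2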

| target | PubChem SID | mean z-score | z-score, replicate A | z-score, replicate B | z-score, replicate C | call |
| --- | --- | --- | --- | --- | --- | --- |
| H4C16 (GeneID 121504) | SID134323038 | -1.7 | -1.41 | -1.61 | -2.08 | inactive |
| PLAGL1 (GeneID 5325) | SID134311868 | 0.75 | 1.09 | 0.74 | 0.41 | inactive |
| TTI1 (GeneID 9675) | SID134318364 | 0.2 | 0.3 | 0.03 | 0.27 | inactive |
| IGHV3OR16-8 (GeneID 388255) | SID134328714 | 0.15 | 0.13 | 0.08 | 0.25 | inactive |
| AZIN1 (GeneID 51582) | SID134313419 | 0.69 | 1.14 | 0.42 | 0.51 | inactive |
| ACAA1 (GeneID 30) | SID134314087 | 0.5 | 0.35 | 0.65 | 0.49 | inactive |
| EVX1 (GeneID 2128) | SID134315976 | 1.1 | 1.35 | 1.33 | 0.61 | inactive |
| UBE2K (GeneID 3093) | SID134314178 | 0.1 | 0.04 | 0.09 | 0.18 | inactive |
| FDPSP3 (GeneID 2227) | SID134329922 | -0.14 | -0.44 | 0.01 | 0.01 | inactive |
| FUT4 (GeneID 2526) | SID134323411 | -0.56 | -0.58 | -0.37 | -0.73 | inactive |
| CHD5 (GeneID 26038) | SID134314575 | 0.57 | 0.53 | 0.58 | 0.59 | inactive |
| LOC100133284 (GeneID 100133284) | SID134328460 | 2.35 | 2.21 | 1.85 | 2.98 | active |
| PGPEP1 (GeneID 54858) | SID134311419 | 1.18 | 0.86 | 1.1 | 1.58 | inactive |
| CLMN (GeneID 79789) | SID134321089 | -0.03 | -0.38 | 0.25 | 0.03 | inactive |
| TP53I11 (GeneID 9537) | SID134323236 | -0.59 | -0.32 | -0.71 | -0.76 | inactive |
| CEACAM19 (GeneID 56971) | SID134318006 | 1.29 | 1.54 | 0.93 | 1.42 | inactive |
| STOML2 (GeneID 30968) | SID134324210 | 0.69 | 0.8 | 0.9 | 0.37 | inactive |
| EHD4 (GeneID 30844) | SID134315152 | 0.49 | 0.94 | 0.22 | 0.31 | inactive |
| ANKRD20A8P (GeneID 729171) | SID134327208 | -2.05 | -2.39 | -1.73 | -2.02 | inactive |
| MAPK8IP2 (GeneID 23542) | SID56479262 | 0.49 | 0.04 | 0.47 | 0.96 | inactive |
| ZNF668 (GeneID 79759) | SID134319809 | 1.82 | 1.97 | 2.19 | 1.3 | inactive |
| MTFMT (GeneID 123263) | SID134314362 | 1.88 | 1.76 | 2.27 | 1.62 | inactive |
| TRMT2B (GeneID 79979) | SID134322549 | 0.61 | 0.84 | 0.5 | 0.5 | inactive |
| RARG (GeneID 5916) | SID134309890 | 0.56 | 0.61 | 0.48 | 0.58 | inactive |
| APOL3 (GeneID 80833) | SID134317659 | -0.09 | 0.14 | -0.18 | -0.21 | inactive |
| MAP4 (GeneID 4134) | SID134316045 | -0.79 | -0.84 | -0.83 | -0.7 | inactive |
| LOC388938 (retired record) (GeneID 388938) | SID134327156 | 0.55 | 0.61 | 0.83 | 0.19 | inactive |
| TAF11L2 (GeneID 391742) | SID134327505 | -1.65 | -1.9 | -1.57 | -1.46 | inactive |
| GAS2 (GeneID 2620) | SID134316335 | 0 | 0.26 | -0.25 | 0 | inactive |
| MNX1 (GeneID 3110) | SID134315328 | -0.21 | 0.26 | -0.49 | -0.41 | inactive |
| VAPB (GeneID 9217) | SID134321706 | 0.98 | 1.08 | 0.86 | 1 | inactive |
| ERICH6 (GeneID 131831) | SID134322601 | -1.17 | -1.27 | -1.45 | -0.78 | inactive |
| POLR3A (GeneID 11128) | SID134323509 | 0.4 | 0.34 | 0.33 | 0.55 | inactive |
| BCL2L14 (GeneID 79370) | SID134310424 | 0.51 | 0.54 | 0.42 | 0.57 | inactive |
| HMX3 (GeneID 340784) | SID134326530 | 0.28 | 0.16 | 0.35 | 0.33 | inactive |
| MTMR6 (GeneID 9107) | SID134313189 | 0.2 | 0.32 | 0.16 | 0.11 | inactive |
| LSM11 (GeneID 134353) | SID134322311 | 1.71 | 1.37 | 1.89 | 1.87 | inactive |
| SASH1 (GeneID 23328) | SID134318234 | 1.19 | 1.33 | 1.02 | 1.21 | inactive |
| SLU7 (GeneID 10569) | SID134321141 | 0.07 | -0.11 | 0.05 | 0.26 | inactive |

Part of the list above in another layout.
{"target":"POLR3A (GeneID 11128)","PubChem SID":"SID134323509","mean z-score":0.4,"z-score, replicate A":0.34,"z-score, replicate B":0.33,"z-score, replicate C":0.55,"call":"inactive"}
{"target":"BCL2L14 (GeneID 79370)","PubChem SID":"SID134310424","mean z-score":0.51,"z-score, replicate A":0.54,"z-score, replicate B":0.42,"z-score, replicate C":0.57,"call":"inactive"}
{"target":"HMX3 (GeneID 340784)","PubChem SID":"SID134326530","mean z-score":0.28,"z-score, replicate A":0.16,"z-score, replicate B":0.35,"z-score, replicate C":0.33,"call":"inactive"}
{"target":"MTMR6 (GeneID 9107)","PubChem SID":"SID134313189","mean z-score":0.2,"z-score, replicate A":0.32,"z-score, replicate B":0.16,"z-score, replicate C":0.11,"call":"inactive"}
{"target":"LSM11 (GeneID 134353)","PubChem SID":"SID134322311","mean z-score":1.71,"z-score, replicate A":1.37,"z-score, replicate B":1.89,"z-score, replicate C":1.87,"call":"inactive"}
{"target":"SASH1 (GeneID 23328)","PubChem SID":"SID134318234","mean z-score":1.19,"z-score, replicate A":1.33,"z-score, replicate B":1.02,"z-score, replicate C":1.21,"call":"inactive"}
